# Mutational tolerance of the Zika virus NS2B-NS3 protease

Reference: Ni et al. 2025, doi:10.1038/s41467-025-63602-z.

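Mutant virus pools were grown in human Huh-7.5 cells. The effect is the change in frequency of a mutant, normalised to wild type, as a mean of three replicate libraries (two for positions 207-308). The aim was to find sites where inhibitor-binding pockets cannot change.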

Protein: NS2B and the protease part of NS3 of Zika virus strain MR766. Positions count along the chain below; NS2B spans 2-131 and NS3 starts at 132.
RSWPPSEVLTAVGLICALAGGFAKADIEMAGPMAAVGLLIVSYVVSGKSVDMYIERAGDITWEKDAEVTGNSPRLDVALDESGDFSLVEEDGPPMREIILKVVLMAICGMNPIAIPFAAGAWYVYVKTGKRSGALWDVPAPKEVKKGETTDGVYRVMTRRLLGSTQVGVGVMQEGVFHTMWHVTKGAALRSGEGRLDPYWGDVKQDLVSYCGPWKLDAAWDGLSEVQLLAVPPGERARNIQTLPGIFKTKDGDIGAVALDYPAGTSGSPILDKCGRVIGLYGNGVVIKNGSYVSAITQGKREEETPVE

Scale: log2 effect, wild type = 0; the lower, the more harmful to the virus.
Each entry names the wild-type residue, its position and the residue put in its place.
All changes here are to glutamine.
The region was split into three libraries (1-103, 104-206, 207-308).
The authors count -1 or higher as tolerated. Position 1 is the last residue of NS2A.
Six mutants with high scores were retested singly and none clearly outgrew wild type, so positive values are not proof of better growth.

D137Q read -6.08.
V138Q read -4.47.
P139Q read -6.05.
A140Q read -4.90.
P141Q read -4.82.
K142Q read -1.90.
E143Q read -0.72.
V144Q read -1.20.
K145Q read -1.02.
K146Q read -1.56.
G147Q read -4.26.
E148Q read -1.14.
T149Q read -2.88.
T150Q read -2.92.
D151Q read -3.41.
G152Q read -5.73.
V153Q read -5.58.
Y154Q read -5.17.
R155Q read -6.08.
V156Q read -5.89.
M157Q read -5.24.
T158Q read -4.92.
R159Q read -3.72.
R160Q read -3.59.
L161Q read -5.42.
L162Q read -5.08.
G163Q read -4.89.
S164Q read -0.27.
T165Q read -0.67.
V167Q read -5.83.
G168Q read -4.25.
V169Q read -6.06.
G170Q read -5.82.
V171Q read -5.31.
M172Q read -6.29.
E174Q read -4.83.
G175Q read -2.52.
V176Q read -5.39.
F177Q read -4.53.
H178Q read -6.14.
T179Q read -5.63.
M180Q read -4.62.
W181Q read -5.09.
H182Q read -6.21.

Excerpt, the final 4 entries:

| substitution | log2 growth effect |
|---|---|
| T179Q | -5.63 |
| M180Q | -4.62 |
| W181Q | -5.09 |
| H182Q | -6.21 |